PubChem BioAssay AID624099, ICCB-Longwood | 2012
The whole screen tested about 21,000 reagents; below is an unselected part. 497 of all reagents (2.4%) count as active. 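Higher z means weaker E2 silencing; only reporter increases were scored, and knock-downs that hurt cell survival may mask genuine repressor factors.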 Entries without a mark were called inactive.

- Screen: 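Host factors E2 relies on to silence an HPV18 LCR reporter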 (primary screen)
- System: human C33A cervical carcinoma cells (HPV-negative) stably expressing BPV1 E2 and an HPV18 LCR luciferase reporter
- Reagents: siRNA pool against human genes, 40 nM
- Duration: 72 h
- Measured: 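HPV18 LCR reporter light per well, converted to plate-wise z-scores that exclude control wells, and averaged over triplicate plates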
- Direction: mean z-score and z-score: higher = stronger reporter signal, weaker E2 silencing
- Rule for the call: 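Mean z ≥ 2 together with z ≥ 2 in two or more of the three replicates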

| target gene | mean z-score | z-score, replicate A | z-score, replicate B | z-score, replicate C |
| --- | --- | --- | --- | --- |
| LY6G6E (lymphocyte antigen 6 family member G6E (pseudogene)) | -0.2 | 0.34 | -0.32 | -0.62 |
| LINC01749 (long independently transcribed non-coding RNA 1749) | -0.66 | -0.63 | -0.6 | -0.73 |
| DRC12 (dynein regulatory complex subunit 12 homolog) | 0.51 | -0.19 | 0.84 | 0.89 |
| RNF121 (ring finger protein 121) | 1.1 | 0.62 | 1.16 | 1.52 |
| GBF1 | -2.86 | -3.01 | -2.4 | -3.19 |
| NIBAN3 (niban apoptosis regulator 3) | -1.18 | -0.95 | -1.51 | -1.07 |
| MUC2 (mucin 2, oligomeric mucus/gel-forming) | 1.04 | 1.17 | 0.98 | 0.97 |
| SLC8A2 | -1.36 | -1.04 | -1.39 | -1.65 |
| OR8B4 (olfactory receptor family 8 subfamily B member 4) | -0.19 | -0.26 | -0.22 | -0.1 |
| SPATA6 (spermatogenesis associated 6) | -0.6 | -0.75 | -0.36 | -0.68 |
| SLC45A4 | -1.11 | -0.89 | -1.18 | -1.25 |

Quoted from above, 2 entries:
| target gene | mean z-score | z-score, replicate A | z-score, replicate B | z-score, replicate C |
| --- | --- | --- | --- | --- |
| OR8B4 (olfactory receptor family 8 subfamily B member 4) | -0.19 | -0.26 | -0.22 | -0.1 |
| SPATA6 (spermatogenesis associated 6) | -0.6 | -0.75 | -0.36 | -0.68 |

Further entries follow.
| target gene | mean z-score | z-score, replicate A | z-score, replicate B | z-score, replicate C |
| --- | --- | --- | --- | --- |
| ZNF57 (zinc finger protein 57) | 0.83 | 0.55 | 0.95 | 1 |
| ARL6IP4 (ARF like GTPase 6 interacting protein 4) | 0.43 | 0.44 | 0.29 | 0.56 |
| TBX1 (T-box transcription factor 1) | 1.27 | 1.17 | 1.42 | 1.22 |
| EIF2B5 (eukaryotic translation initiation factor 2B subunit epsilon) | 0.06 | 0.01 | 0.15 | 0 |
| MAGEA10 (MAGE family member A10) | -0.57 | -0.82 | -0.37 | -0.51 |
| PDLIM3 (PDZ and LIM domain 3) | 0.13 | -0.28 | 0.13 | 0.56 |
| LOC343052 (immunoglobulin superfamily DCC subclass member 3 pseudogene) | 0.01 | 0.42 | 0 | -0.38 |
| SMAP2 (small ArfGAP2) | -1.11 | -1.1 | -1.37 | -0.85 |
| GALNT18 (polypeptide N-acetylgalactosaminyltransferase 18) | -0.31 | -0.18 | -0.39 | -0.35 |
| LOC401287 (retired record) | 0.76 | 1.03 | 0.71 | 0.55 |
| TMEM119 (transmembrane protein 119) | 1.85 | 1.93 | 1.82 | 1.79 |
| CHD9 (chromodomain helicase DNA binding protein 9) | 1.23 | 1.37 | 1.23 | 1.08 |
